Reference: PubChem BioAssay AID1224833 (University of Georgia, 2016)
The whole screen tested about 12,000 reagents; shown is an unselected part. In the full data, about 5,600 (46%) are marked active. 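Active calls cover z-scores past 1 in both directions, so they include lowered as well as raised rotavirus replication.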 Entries without a mark were called inactive.

Aim: 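Human genes whose knock-down alters rotavirus replication in monkey cells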 (primary screen)
System: monkey MA104 kidney cells
Reagent: siRNA pool against human genes, 50 nM
Time to read-out: 48 h knock-down before infection; read 24 h after infection
Challenge: infection with rotavirus strain RV3 two days after transfection; infectious dose for this stage not given
Detection: 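Rotavirus antigen per well by fluorescent immunoassay, normalised to non-targeting control wells on each plate and given as a standard z-score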
Direction: z-score vs non-targeting control: higher = more rotavirus replication than with non-targeting control
Hit rule: In these data the active calls have z-score vs non-targeting control at about -1 or lower, or at about 1 or higher
Meaning of the calls: active = z-score beyond 1 either way; inactive = z-score within 1 of zero

CCDC69 scored z-score vs non-targeting control -1.58 (active). Depletion of GPR32 resulted in: z-score vs non-targeting control -0.503. Depletion of POLR2D came out at: z-score vs non-targeting control 1.08 (active). Knock-down of SAR1B came out at: z-score vs non-targeting control -0.564. With knock-down of ZNF558, the screen gave z-score vs non-targeting control -0.928. DOCK8-AS1 gave z-score vs non-targeting control -0.238.

Against H4C13, the values are z-score vs non-targeting control -0.397. For NFAM1, the values are z-score vs non-targeting control -0.644. For BIK the deposit lists z-score vs non-targeting control -1.88 (active). For SYMPK, the entry reads z-score vs non-targeting control 0.905. Depletion of CLEC3A resulted in: z-score vs non-targeting control 0.588. Silencing of OTOS resulted in: z-score vs non-targeting control -0.692.

RTRAF showed z-score vs non-targeting control -0.812. Against OR1D2, the entry reads z-score vs non-targeting control 1.04 (active). After knock-down of MOCS3, the screen gave z-score vs non-targeting control 0.583. Against CYLC1, the values are z-score vs non-targeting control -2.49 (active). With knock-down of SWAP70, the record shows z-score vs non-targeting control 0.492. Silencing of MRPS10 came out at: z-score vs non-targeting control -2 (active).

With knock-down of CYGB, the screen gave z-score vs non-targeting control 0.626. ZNF519 gave z-score vs non-targeting control -0.808. For PSD2, the entry reads z-score vs non-targeting control 0.578. For NUP62CL, the entry reads z-score vs non-targeting control -1.42 (active). Against FGD3, the values are z-score vs non-targeting control -0.92. With knock-down of PAF1, the record shows z-score vs non-targeting control 0.444.

Against CES1 the deposit lists z-score vs non-targeting control -1.54 (active). FAM222A showed z-score vs non-targeting control -0.902. TMEM86B scored z-score vs non-targeting control -2.79 (active). Silencing of LEPROT resulted in: z-score vs non-targeting control -0.726. For TBX15, the entry reads z-score vs non-targeting control 0.911. KRTAP5-5 showed z-score vs non-targeting control 0.715.

Knock-down of PACRG gave: z-score vs non-targeting control -1.07 (active). SLC25A1 scored z-score vs non-targeting control -2.03 (active).
